Values from PubChem BioAssay AID624099 (ICCB-Longwood, 2012).

Purpose: 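Human genes that papillomavirus E2 requires to repress the HPV18 LCR promoter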 (primary screen)
System: human C33A cervical carcinoma cells (HPV-negative) stably expressing BPV1 E2 and an HPV18 LCR luciferase reporter
Reagents: siRNA pool against human genes, 40 nM
Time to read-out: 72 h
Measurement: 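Per-well luciferase luminescence, z-scored on each plate against the plate mean and SD with control wells left out, then averaged across three replicate plates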
Scale: mean z-score and z-score: higher = stronger reporter signal, weaker E2 silencing
Call rule: 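Mean z ≥ 2 together with z ≥ 2 in two or more of the three replicates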
The deposit covers about 21,000 reagents; shown is a part drawn at random. Over the whole deposit, 497 (2.4%) are marked active. 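Higher z means weaker E2 silencing; only reporter increases were scored, and knock-downs that hurt cell survival may mask genuine repressor factors.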

| gene knocked down | mean z-score | z-score, replicate A | z-score, replicate B | z-score, replicate C | Call |
| --- | --- | --- | --- | --- | --- |
| LOC391405 (retired record) (GeneID 391405) | -1.54 | -1.37 | -1.6 | -1.65 | inactive |
| SNTA1 (GeneID 6640) | -0.23 | -0.14 | -0.38 | -0.17 | inactive |
| IGHG4 (GeneID 3503) | 0.74 | 1.02 | 0.37 | 0.82 | inactive |
| CD3D (GeneID 915) | -1.43 | -1.53 | -1.4 | -1.37 | inactive |
| MBD2 (GeneID 8932) | 0.24 | 0.4 | 0.41 | -0.09 | inactive |
| LOC388809 (retired record) (GeneID 388809) | -0.58 | -0.48 | -0.94 | -0.32 | inactive |
| LOC401442 (GeneID 401442) | 0.37 | 0.11 | 0.44 | 0.58 | inactive |
| UBR7 (GeneID 55148) | -0.54 | -0.74 | -1.06 | 0.17 | inactive |
| TYRP1 (GeneID 7306) | 0.43 | 0.22 | 0.57 | 0.49 | inactive |
| TPRN (GeneID 286262) | 0.7 | 0.76 | 0.73 | 0.61 | inactive |
| LOC389166 (retired record) (GeneID 389166) | 1.59 | 1.36 | 1.83 | 1.59 | inactive |
| LOC402322 (retired record) (GeneID 402322) | 0.37 | 0.46 | 0.61 | 0.04 | inactive |
| PIANP (GeneID 196500) | -0.24 | -0.15 | -0.36 | -0.2 | inactive |
| ATP8B4 (GeneID 79895) | -1.72 | -1.37 | -1.63 | -2.15 | inactive |
| TANGO2 (GeneID 128989) | -1.45 | -1.57 | -1 | -1.79 | inactive |
| SLCO3A1 (GeneID 28232) | 1 | 1.36 | 0.7 | 0.92 | inactive |
| LOC400988 (retired record) (GeneID 400988) | 0.36 | 0.4 | 0.09 | 0.59 | inactive |
| ZXDC (GeneID 79364) | 1.04 | 1.23 | 0.86 | 1.03 | inactive |
| OSER1 (GeneID 51526) | -0.11 | -0.13 | -0.43 | 0.24 | inactive |
| TXN (GeneID 7295) | -0.79 | -0.17 | -1.06 | -1.15 | inactive |
| SGO2 (GeneID 151246) | 1.07 | 1.39 | 0.79 | 1.05 | inactive |
| LY6D (GeneID 8581) | 0.28 | 0.08 | 0.34 | 0.43 | inactive |
| PRAMEF20 (GeneID 645425) | -2.42 | -2.27 | -2.24 | -2.76 | inactive |
| L1TD1 (GeneID 54596) | -1.83 | -1.77 | -1.96 | -1.78 | inactive |
| EPYC (GeneID 1833) | 0.9 | 1.16 | 0.56 | 1 | inactive |
| ATP5IF1 (GeneID 93974) | -1.16 | -1.06 | -1.45 | -0.96 | inactive |
| LOC401165 (retired record) (GeneID 401165) | 0.33 | 0.7 | 0.25 | 0.04 | inactive |
| CTSL3P (GeneID 392360) | -0.82 | -0.91 | -0.68 | -0.86 | inactive |
| CLCN4 (GeneID 1183) | -1.36 | -1.59 | -1.23 | -1.27 | inactive |

Next part; the last 5 above are carried over.
| gene knocked down | mean z-score | z-score, replicate A | z-score, replicate B | z-score, replicate C | Call |
| --- | --- | --- | --- | --- | --- |
| EPYC (GeneID 1833) | 0.9 | 1.16 | 0.56 | 1 | inactive |
| ATP5IF1 (GeneID 93974) | -1.16 | -1.06 | -1.45 | -0.96 | inactive |
| LOC401165 (retired record) (GeneID 401165) | 0.33 | 0.7 | 0.25 | 0.04 | inactive |
| CTSL3P (GeneID 392360) | -0.82 | -0.91 | -0.68 | -0.86 | inactive |
| CLCN4 (GeneID 1183) | -1.36 | -1.59 | -1.23 | -1.27 | inactive |
| USP9Y (GeneID 8287) | 0.14 | 0.05 | 0.23 | 0.15 | inactive |
| RGS14 (GeneID 10636) | 0.11 | 0 | 0.25 | 0.09 | inactive |
| FBXL17 (GeneID 64839) | -0.15 | 0 | -0.25 | -0.18 | inactive |
| BBS12 (GeneID 166379) | -0.84 | -0.74 | -1.14 | -0.65 | inactive |
| BEST4 (GeneID 266675) | 0.57 | 0.25 | 0.53 | 0.94 | inactive |
| C15orf32 (GeneID 145858) | -0.41 | -1.07 | -0.09 | -0.07 | inactive |
| SP140 (GeneID 11262) | 1.36 | 1.36 | 1.34 | 1.39 | inactive |
| C6orf118 (GeneID 168090) | -0.6 | -0.41 | -0.67 | -0.72 | inactive |
| RAPGEF4 (GeneID 11069) | -0.14 | 0.2 | -0.11 | -0.5 | inactive |
| RBMY1E (GeneID 378950) | -0.41 | -0.24 | -0.42 | -0.58 | inactive |
| VBP1 (GeneID 7411) | -0.46 | -0.2 | -0.78 | -0.41 | inactive |
| GLUL (GeneID 2752) | -0.04 | -0.07 | -0.06 | 0.01 | inactive |
| FOXL1 (GeneID 2300) | -0.72 | -0.45 | -0.64 | -1.07 | inactive |
| OR4D10 (GeneID 390197) | 1.58 | 2.07 | 1.22 | 1.46 | inactive |
| FEM1C (GeneID 56929) | -0.9 | -0.98 | -0.83 | -0.89 | inactive |
| KDM4A (GeneID 9682) | -0.49 | 0.01 | -0.77 | -0.72 | inactive |
| DZIP3 (GeneID 9666) | -0.78 | -1.36 | -0.99 | 0.02 | inactive |
| RASSF1 (GeneID 11186) | -1.42 | -1.72 | -1.11 | -1.44 | inactive |
| C21orf91 (GeneID 54149) | -0.18 | -0.16 | -0.27 | -0.1 | inactive |
| HMGB1 (GeneID 3146) | 0.38 | 0.68 | 0.35 | 0.11 | inactive |
| LINC02991 (GeneID 401040) | 0.08 | 0.3 | -0.16 | 0.1 | inactive |
| ZMYM3 (GeneID 9203) | 0.5 | 0.64 | 0.59 | 0.27 | inactive |
| PLEKHJ1 (GeneID 55111) | 0.12 | 0.54 | 0.08 | -0.27 | inactive |
| GALNT2 (GeneID 2590) | -0.15 | -0.17 | -0.07 | -0.19 | inactive |
| AMELY (GeneID 266) | 1.18 | 0.97 | 1.29 | 1.29 | inactive |
| IL3 (GeneID 3562) | -0.52 | -0.55 | -0.55 | -0.47 | inactive |
| LINC00339 (GeneID 29092) | 1.8 | 1.31 | 2.02 | 2.07 | inactive |
| RHOH (GeneID 399) | 0.25 | 0.11 | 0.49 | 0.16 | inactive |
| RIC1 (GeneID 57589) | 0.32 | 0.05 | 0.23 | 0.69 | inactive |
| APCS (GeneID 325) | 0.11 | -0.08 | 0.33 | 0.06 | inactive |
| TRUB2 (GeneID 26995) | -1.36 | -1.39 | -1.49 | -1.19 | inactive |
| UNQ5810 (retired record) (GeneID 388218) | 0.3 | 0.5 | 0.03 | 0.38 | inactive |
| PRKACG (GeneID 5568) | -0.76 | -0.91 | -0.25 | -1.1 | inactive |
| CAP1 (GeneID 10487) | 1.27 | 1.09 | 1.26 | 1.46 | inactive |
| LIMA1 (GeneID 51474) | -0.75 | -0.42 | -0.97 | -0.87 | inactive |
| IL9 (GeneID 3578) | -1.4 | -1.22 | -1.46 | -1.51 | inactive |
| HASPIN (GeneID 83903) | -0.08 | -0.14 | -0.37 | 0.28 | inactive |
| SLC35E3 (GeneID 55508) | -0.02 | 0.1 | -0.04 | -0.11 | inactive |
| TATDN2 (GeneID 9797) | 0.37 | 0.29 | 0.42 | 0.41 | inactive |
| FBXW12 (GeneID 285231) | -0.64 | -0.48 | -0.74 | -0.7 | inactive |
| SAMD9L (GeneID 219285) | -0.93 | -1.1 | -0.69 | -1 | inactive |
| SPAAR (GeneID 158376) | 1.15 | 1.7 | 0.76 | 1 | inactive |
| SPATS2L (GeneID 26010) | -1.19 | -1.1 | -1.29 | -1.17 | inactive |
| LMTK3 (GeneID 114783) | 0.93 | 1.08 | 0.69 | 1.01 | inactive |
